Holding throughout (assay): purified protein
Conditions in all cases: pH 8.0; 37.0 °C

The subject of series [1] is CC(C)(COP(=O)(O)OP(=O)(O)OC[C@H]1O[C@@H](n2cnc3c(N)ncnc32)[C@H](O)[C@@H]1OP(=O)(O)O)[C@@H](O)C(=O)NCCC(=O)NCCS.
In a further series the test system is CCCCCCCCCCCCCCCC(=O)O.
The subject of series [2] is Nc1ncnc2c1ncn2[C@@H]1O[C@H](COP(=O)(O)OP(=O)(O)OP(=O)(O)O)[C@@H](O)[C@H]1O.

The values that follow come from PMC2793005, “Dissecting the Role of Critical Residues and Substrate Preference of a Fatty Acyl-CoA Synthetase (FadD13) of Mycobacterium tuberculosis” (PLoS ONE, 2009).

What is called Km is the substrate concentration at which the rate is half of its maximum.

As to (Mycobacterium tuberculosis H37Rv), the Km in series [1] came to 0.13 ± 0.01 mM; in the series on CCCCCCCCCCCCCCCC(=O)O it was 19.79 ± 5.67 µM; in series [2] it was 0.24 ± 0.05 mM.
